Sequence variants of PSTVd loop 15 after infection

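Three N. benthamiana plants were inoculated with the whole mutant pool. Progeny were sequenced from the inoculated region (day 5), the margin of the inoculated leaf (day 10) and systemic leaves (day 12).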

The pool varies loop 15 of the PSTVd intermediate strain in the pattern GGAAACCGNNNNNNC; wild type is GGAAACCGCUACUAC (upper and lower strand joined, each 5' to 3', the first 7 letters being the upper strand, closing pairs included).

Values are reads per thousand in the sample; higher means more abundant, 0 means not found.
Each value is the mean of three plants.
"Pool" is the share in the plasmid pool used as inoculum, on the same scale.
The inoculated region was read from the minus strand, the other sites from the plus strand.
With 43,870-66,106 reads a sample, very low values are single reads.
Sequences that differ at fixed positions probably stem from PCR or sequencing errors, and defective variants can be carried along by functional ones.
For reference, wild type rose from 33.9 per thousand in the pool to 202, 200, 159 (inoculated region), 724, 746, 710 (leaf margin) and 856, 883, 880 (systemic leaves).

| # | sequence | pool | inoculated region | leaf margin | systemic leaves |
|---|---|---|---|---|---|
| 1 | GGAAACCGGCGUACC | 0.192 | 0.106 | 0.00742 | 0 |
| 2 | GGAAACCGUUUAAAC | 0.224 | 0.0452 | 0.0134 | 0 |
| 3 | GGAAACCGGCAGUCC | 0.272 | 0.279 | 0.177 | 0.0736 |
| 4 | GGAAACCGCCGAAUC | 0.176 | 0.176 | 0.0208 | 0.00537 |
| 5 | GGAAACCGGAUGAGC | 0.352 | 0.0675 | 0.0195 | 0 |
| 6 | GGAAACCGUGUAAAC | 0.256 | 0.103 | 0 | 0 |
| 7 | GGAAACCGACGUAUC | 0.240 | 0.146 | 0.0195 | 0 |
| 8 | GGAAACCGGGGCGUC | 0.192 | 0.0694 | 0.00668 | 0.0130 |
| 9 | GGAAACCGCUCAUAC | 0.304 | 0.327 | 0.138 | 0.0357 |
| 10 | GGAAACCGCGCUACC | 0.304 | 0.106 | 0.00742 | 0 |
| 11 | GGAAACCGUAAAAGC | 0.224 | 0.103 | 0.00668 | 0.00537 |
| 12 | GGAAACCGAAGCAGC | 0.208 | 0.0848 | 0.0195 | 0 |
| 13 | GGAAACCGAGUGCCC | 0.224 | 0.363 | 0.00668 | 0 |
| 14 | GGAAACCGCACGCGC | 0.176 | 0.104 | 0.00742 | 0 |
| 15 | GGAAACCGCCUUUGC | 0.256 | 0.115 | 0.00539 | 0 |
| 16 | GGAAACCGCUUAGAC | 0.240 | 0.0950 | 0.00539 | 0.00537 |
| 17 | GGAAACCGACGUUCC | 0.160 | 0.0515 | 0 | 0 |
| 18 | GGAAACCGUUUGUAC | 0.272 | 0.279 | 0.110 | 0.0638 |
| 19 | GGAAACCGGAUCGGC | 0.176 | 0.0913 | 0.0162 | 0 |
| 20 | GGAAACCGGCCAAUC | 0.192 | 0.0790 | 0.0108 | 0 |
| 21 | GGAAACCGAAAAGAC | 0.320 | 0.114 | 0.0134 | 0 |
| 22 | GGAAACCGAUUGCCC | 0.224 | 0.0732 | 0.0162 | 0 |
| 23 | GGAAACCGGGCAGCC | 0.288 | 0.114 | 0.00539 | 0 |
| 24 | GGAAACCGUCUGAGC | 0.352 | 0.0553 | 0.0269 | 0 |
| 25 | GGAAACCGGAGCACC | 0.112 | 0.116 | 0.00539 | 0 |
| 26 | GGAAACCGCACCUGC | 0.224 | 0.251 | 0.0121 | 0.00504 |
| 27 | GGAAACCGUAACGGC | 0.288 | 0.147 | 0.0249 | 0 |
| 28 | GGAAACCGCACUGGC | 0.256 | 0.135 | 0.00668 | 0 |
| 29 | GGAAACCGCCCGGGC | 0.224 | 0.0882 | 0.00668 | 0 |
| 30 | GGAAACCGUUCUCGC | 0.208 | 0.269 | 0.0121 | 0 |
| 31 | GGAAACCGUACAUGC | 0.144 | 0.114 | 0.0121 | 0 |
| 32 | GGAAACCGACGUGGC | 0.304 | 0.219 | 0 | 0.00537 |
| 33 | GGAAACCGUUCACAC | 0.224 | 0.317 | 0.100 | 0.0796 |
| 34 | GGAAACCGCUGGUUC | 0.288 | 0.299 | 0.115 | 0.0407 |
| 35 | GGAAACCGUGAAUAC | 0.272 | 0.280 | 0.149 | 0.0462 |
| 36 | GGAAACCGUCAGCAC | 0.208 | 0.344 | 0.118 | 0.0638 |
| 37 | GGAAACCGACACUUC | 0.256 | 0.325 | 0.0954 | 0.0490 |
| 38 | GGAAACCGGGGGCGC | 0.192 | 0.0778 | 0.00742 | 0 |
| 39 | GGAAACCGGAAGUAC | 0.320 | 0.390 | 0.131 | 0.0609 |
| 40 | GGAAACCGGUUAUAC | 0.240 | 0.264 | 0.0988 | 0.0435 |
| 41 | GGAAACCGGACCGUC | 0.192 | 0.0975 | 0.00742 | 0 |
| 42 | GGAAACCGAUGCACC | 0.144 | 0.104 | 0.0208 | 0 |
| 43 | GGAAACCGUUGAAUC | 0.160 | 0.0505 | 0.00539 | 0 |
| 44 | GGAAACCGAUAAGUC | 0.256 | 0.104 | 0 | 0 |
| 45 | GGAAACCGUUGGGUC | 0.256 | 0.0324 | 0.00742 | 0 |
| 46 | GGAAACCGCCUUCUC | 0.336 | 0.113 | 0 | 0 |
| 47 | GGAAACCGCCCACAC | 0.208 | 0.254 | 0.103 | 0.0107 |
| 48 | GGAAACCGGCGGCUC | 0.240 | 0.167 | 0.0208 | 0 |
| 49 | GGAAACCGGGUACGC | 0.224 | 0.112 | 0 | 0.0130 |
| 50 | GGAAACCGCCUUGCC | 0.240 | 0.0976 | 0.0128 | 0 |
| 51 | GGAAACCGUGCUCUC | 0.176 | 0.127 | 0.0128 | 0.00537 |
| 52 | GGAAACCGAACUAGC | 0.192 | 0.0859 | 0.0208 | 0 |
| 53 | GGAAACCGAUGGAUC | 0.256 | 0.0549 | 0 | 0 |
| 54 | GGAAACCGACAAGUC | 0.192 | 0.0876 | 0 | 0 |
| 55 | GGAAACCGAUUAAAC | 0.160 | 0.0686 | 0 | 0 |
| 56 | GGAAACCGUAGUCCC | 0.176 | 0.0947 | 0.00668 | 0 |
| 57 | GGAAACCGGAUUCGC | 0.208 | 0.0737 | 0.00668 | 0 |
| 58 | GGAAACCGAAGCGAC | 0.384 | 0.107 | 0.00668 | 0 |
| 59 | GGAAACCGCGGUCGC | 0.256 | 0.0470 | 0 | 0 |
| 60 | GGAAACCGUUCUCCC | 0.160 | 0.0911 | 0.00668 | 0 |
| 61 | GGAAACCGAUCAUCC | 0.336 | 0.230 | 0.0195 | 0.0107 |
| 62 | GGAAACCGCAAAAAC | 0.208 | 0.225 | 0.0223 | 0 |
| 63 | GGAAACCGAUAAACC | 0.208 | 0.120 | 0.00539 | 0 |
| 64 | GGAAACCGGGAGACC | 0.336 | 0.0734 | 0.00742 | 0 |
| 65 | GGAAACCGUAUAGUC | 0.192 | 0.102 | 0.00742 | 0 |
| 66 | GGAAACCGAACUGUC | 0.224 | 0.0670 | 0.00668 | 0.00537 |
| 67 | GGAAACCGUAGGAGC | 0.320 | 0.127 | 0.0208 | 0 |
| 68 | GGAAACCGGUGGGCC | 0.192 | 0.115 | 0.0134 | 0 |
| 69 | GGAAACCGCCAGGAC | 0.176 | 0.303 | 0.163 | 0.0357 |
| 70 | GGAAACCGUUUUGUC | 0.224 | 0.0932 | 0.00668 | 0 |
| 71 | GGAAACCGCACUGCC | 0.160 | 0.0800 | 0.00742 | 0 |
| 72 | GGAAACCGUUGUCUC | 0.192 | 0.113 | 0 | 0 |
| 73 | GGAAACCGCUGCACC | 0.256 | 0.168 | 0.0108 | 0 |

Extract of 10 entries:

| sequence | pool | inoculated region | leaf margin | systemic leaves |
|---|---|---|---|---|
| GGAAACCGUUGAAUC | 0.160 | 0.0505 | 0.00539 | 0 |
| GGAAACCGAAGCGAC | 0.384 | 0.107 | 0.00668 | 0 |
| GGAAACCGUUUGUAC | 0.272 | 0.279 | 0.110 | 0.0638 |
| GGAAACCGACAAGUC | 0.192 | 0.0876 | 0 | 0 |
| GGAAACCGGACCGUC | 0.192 | 0.0975 | 0.00742 | 0 |
| GGAAACCGACGUAUC | 0.240 | 0.146 | 0.0195 | 0 |
| GGAAACCGCACCUGC | 0.224 | 0.251 | 0.0121 | 0.00504 |
| GGAAACCGCCAGGAC | 0.176 | 0.303 | 0.163 | 0.0357 |
| GGAAACCGCUUAGAC | 0.240 | 0.0950 | 0.00539 | 0.00537 |
| GGAAACCGUAAAAGC | 0.224 | 0.103 | 0.00668 | 0.00537 |

Data from the supplement of Wu et al. 2024, doi:10.1371/journal.ppat.1012142.